The record followed here is publication PMC11946510, “Binding of small molecules at the P-stalk site of ricin A subunit trigger conformational changes that extend into the active site” (2025).

The target in test [1] is RTA (Ricinus communis, UniProt P02879).
For test [2], the target named is ricin holotoxin (Ricinus communis, UniProt P02879).

Where “and” joins values, the source holds several entries; their conditions need not be identical. Equal values may be shown once.

Take `CCc1cccc(C)c1-c1ccc(C(=O)O)s1`: the Ki in test [1] is 1.8 µM and 2 µM. In test [2], this molecule yielded an EC50 of 98 µM.

Broadly, the Ki is the dissociation constant of the complex between target and ligand, obtained from inhibition or displacement. A higher Ki goes with weaker binding. One may read the EC50 as the concentration giving half of the maximal effect. A high value points to a need for much substance.
